From patent US20220275059A1

Molecular target: MERS-S on pseudotyped VSV particles (MERS-S carrying a 16-a.a. cytoplasmic tail truncation) (MERS-CoV) (UniProt K9N5Q8)

“isotype control (irrelevant antibody recognizing the Strep-tag affinity tag)” showed a 50% inh titer, MERS-S VSV ps., column H2L2 MAb, row IsotypeCtrl greater than 20 µg/mL.
